# Genome-wide point mutation profile of HIV-1: integrase

Source: Al-Mawsawi et al. 2014 (doi:10.1186/s12977-014-0124-6), supplementary data.

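Seven fragments of pNL4-3 were mutated by error-prone PCR, and each virus pool was passaged in CEM T cells. The RC index is the frequency of a change after passage round 2 divided by its frequency in the plasmid library.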

Protein: integrase of HIV-1 NL4-3, numbered from its first residue. The source prints no sequence; the chain below is taken from UniProt P12497, a closely related isolate, and fits the source at the 252 positions it covers.
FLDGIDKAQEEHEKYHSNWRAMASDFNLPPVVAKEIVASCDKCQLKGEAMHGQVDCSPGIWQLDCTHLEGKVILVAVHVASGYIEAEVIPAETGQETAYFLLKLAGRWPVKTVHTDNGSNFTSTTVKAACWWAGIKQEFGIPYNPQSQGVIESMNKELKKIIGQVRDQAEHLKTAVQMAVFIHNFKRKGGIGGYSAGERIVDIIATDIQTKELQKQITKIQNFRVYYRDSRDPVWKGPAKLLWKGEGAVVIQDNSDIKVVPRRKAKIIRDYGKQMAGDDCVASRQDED
"Other frame" gives the effect on an overlapping gene as the source lists it; other overlaps (genes, RNA elements) are not shown.

Values are the RC index; higher means better tolerated. The authors read about 0.1 or less as lethal, 0.1-0.2 as attenuated and 0.2 or more as tolerated. Substitutions are written as wild-type residue, site number, new residue. Input reads are the counts in the plasmid library. Base changes are numbered along pNL4-3. Clones carried about five changes per kilobase, which can drag down the index of neutral changes. An index over 1, which the authors read as above wild type, was rare (1.9% of all changes in the genome).

For V75I (base G4452A, input reads 490) the result was 0.159.
For Q44L (base A4360T, input reads 876) the result was 0.0342.
For S57I (base G4399T, input reads 372) the result was 0.0912.
For G237R (base G4938A, input reads 211) the result was 0.191.
For N27D (base A4308G, input reads 188) the result was 0.144.
For I36V (base A4335G, input reads 306) the result was 0.0663.
For W19G (base T4284G, input reads 327) the result was 0.117.
For P29S (base C4314T, input reads 496) the result was 0.0818.
For Q53L (base A4387T, input reads 364) the result was 0.0549.
For F139L (base T4646G, input reads 51) the result was 0.116.
For D116Y (base G4575T, input reads 317) the result was 0.162.
For W243G (base T4956G, input reads 113) the result was 0.0596.
For I257M (base A5000G, input reads 190) the result was 0.0827.
For I60T (base T4408C, input reads 135) the result was 0.118.
For T122I (base C4594T, input reads 371) the result was 0.192.
For V72I (base G4443A, input reads 269) the result was 0.275.
For L28I (base C4311A, input reads 679) the result was 0.0465.
For S123T (base G4597C, input reads 154) the result was 0.116.
For T218I (base C4882T, input reads 335) the result was 0.183.
For A80T (base G4467A, input reads 460) the result was 0.143.
For N155Y (base A4692T, input reads 90) the result was 0.119.
For A248P (base G4971C, input reads 112) the result was 0.0801.
For D253G (base A4987G, input reads 143) the result was 0.0157.
For V126L (base G4605C, input reads 72) the result was 0.0824.
For S230T (base G4918C, input reads 80) the result was 0.0450.
For I151M (base A4682G, input reads 301) the result was 0.166.
For K42T (base A4354C, input reads 144) the result was 0.0313.
For G70R (base G4437A, input reads 235) the result was 0.688.
For R224L (base G4900T, input reads 248) the result was 0.153.
For S153F (base C4687T, input reads 133) the result was 0.550.
For F26V (base T4305G, input reads 57) the result was 0.0396.
For K42N (base A4355C, input reads 145) the result was 0.0466.
For S255C (base A4992T, input reads 333) the result was 0.0135.
For G193V (base G4807T, input reads 275) the result was 0.138.
For T210S (base A4857T, input reads 221) the result was 0.0326.
For T66K (base C4426A, input reads 91) the result was 0.132.
For E246D (base A4967T, input reads 283) the result was 0.0476.
For H67L (base A4429T, input reads 304) the result was 0.236.
For C43S (base G4357C, input reads 185) the result was 0.122.
For E35V (base A4333T, input reads 338) the result was 0.0467.
For K111E (base A4560G, input reads 371) the result was 0.0426.
For V54E (base T4390A, input reads 261) the result was 0.0459.
For G47W (base G4368T, input reads 278) the result was 0.151.
For Y83N (base T4476A, input reads 207) the result was 0.0386.
For E69K (base G4434A, input reads 373) the result was 0.798.
For F26L (base T4305C, input reads 216) the result was 0.0939.
For A49D (base C4375A, input reads 140) the result was 0.0570.
For S153C (base C4687G, input reads 32) the result was 0.167.
For R269W (base A5034T, input reads 346) the result was 0.0519.
For C280R (base T5067C, other frame Vif silent, input reads 320) the result was 0.0701.
For L241F (base C4950T, input reads 368) the result was 0.0793.
For G59R (base G4404C, input reads 105) the result was 0.0190.
For V234I (base G4929A, input reads 403) the result was 0.0780.
For S24I (base G4300T, input reads 232) the result was 0.0680.

The opening 6 entries, copied out:

| mutation | base | other frame | input reads | replication capacity index |
|---|---|---|---|---|
| V75I | G4452A | none | 490 | 0.159 |
| Q44L | A4360T | none | 876 | 0.0342 |
| S57I | G4399T | none | 372 | 0.0912 |
| G237R | G4938A | none | 211 | 0.191 |
| N27D | A4308G | none | 188 | 0.144 |
| I36V | A4335G | none | 306 | 0.0663 |